{"source": "PubChem BioAssay AID1259414 (Drosophila RNAi Screening Center, 2018)", "test": "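Host factors increasing or decreasing Wolbachia levels in cultured fly cells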 (primary screen)", "system": "Drosophila JW18 cells infected with Wolbachia", "reagents": "long dsRNA against Drosophila genes, 0.25 µg dsRNA per well of a 384-well plate", "timing": "5 days", "conditions": "cells persistently infected with Wolbachia before knock-down; no added drug", "measured": "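Imaged fluorescence in situ signal for Wolbachia 23S rRNA per DAPI-counted host cell, given as a robust z-score within each plate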", "scale": "Wolbachia per cell robust z: higher = more Wolbachia per host cell than the plate typical", "call rule": "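Hit when robust z is 1.5 or more, or -1.5 or less, in at least two of three replicates; excludes dsRNAs with several or no targets, genes not expressed in JW18 and well A1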", "note": "The deposit covers about 24,000 reagents; shown is an unselected part of those with a known target gene and a result. Of all reagents, about 1,210 (5%) are marked active. 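Inactive calls also include excluded dsRNAs with several or no targets, genes unexpressed in JW18, and well A1, regardless of score.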 Names joined by + are all predicted targets of the reagent. No sequences are given here."}
{"target gene": "primo-2 + primo-1", "dsRNA": "DRSC16511", "Wolbachia per cell robust z, rep 1": -3.57, "Wolbachia per cell robust z, rep 2": -4.48, "Wolbachia per cell robust z, rep 3": 1.03, "activity call": "inactive"}
{"target gene": "primo-2 + primo-1", "dsRNA": "DRSC27823", "Wolbachia per cell robust z, rep 1": -4.73, "Wolbachia per cell robust z, rep 2": 0.382, "Wolbachia per cell robust z, rep 3": 0.152, "activity call": "inactive"}
{"target gene": "CG6293", "dsRNA": "DRSC16011", "Wolbachia per cell robust z, rep 1": -0.105, "Wolbachia per cell robust z, rep 2": -5.77, "Wolbachia per cell robust z, rep 3": -0.188, "activity call": "inactive"}
{"target gene": "CG6293", "dsRNA": "DRSC28774", "Wolbachia per cell robust z, rep 1": 0.154, "Wolbachia per cell robust z, rep 2": 0.426, "Wolbachia per cell robust z, rep 3": 1.61, "activity call": "inactive"}
{"target gene": "Cip4", "dsRNA": "DRSC08469", "Wolbachia per cell robust z, rep 1": 0.656, "Wolbachia per cell robust z, rep 2": 1.19, "Wolbachia per cell robust z, rep 3": 2.15, "activity call": "inactive"}
{"target gene": "Cip4", "dsRNA": "DRSC21740", "Wolbachia per cell robust z, rep 1": -2.32, "Wolbachia per cell robust z, rep 2": -1.5, "Wolbachia per cell robust z, rep 3": -1.36, "activity call": "inactive"}
{"target gene": "Idh3b", "dsRNA": "DRSC16040", "Wolbachia per cell robust z, rep 1": -0.795, "Wolbachia per cell robust z, rep 2": 0.566, "Wolbachia per cell robust z, rep 3": 0.636, "activity call": "inactive"}
{"target gene": "Idh3b", "dsRNA": "DRSC28483", "Wolbachia per cell robust z, rep 1": 0.704, "Wolbachia per cell robust z, rep 2": -0.0577, "Wolbachia per cell robust z, rep 3": -0.0891, "activity call": "inactive"}
{"target gene": "CG9519", "dsRNA": "DRSC20195", "Wolbachia per cell robust z, rep 1": -0.75, "Wolbachia per cell robust z, rep 2": 0.79, "Wolbachia per cell robust z, rep 3": -1.09, "activity call": "inactive"}
{"target gene": "CG9519", "dsRNA": "DRSC28137", "Wolbachia per cell robust z, rep 1": 0.0725, "Wolbachia per cell robust z, rep 2": 0.334, "Wolbachia per cell robust z, rep 3": -2.6, "activity call": "inactive"}
{"target gene": "cta + CR40005", "dsRNA": "DRSC03763", "Wolbachia per cell robust z, rep 1": -0.243, "Wolbachia per cell robust z, rep 2": 0.349, "Wolbachia per cell robust z, rep 3": -1.13, "activity call": "inactive"}
{"target gene": "CG30414", "dsRNA": "DRSC04372", "Wolbachia per cell robust z, rep 1": 0.0503, "Wolbachia per cell robust z, rep 2": 0.788, "Wolbachia per cell robust z, rep 3": -0.153, "activity call": "inactive"}
{"target gene": "CG30414", "dsRNA": "DRSC28748", "Wolbachia per cell robust z, rep 1": 1.03, "Wolbachia per cell robust z, rep 2": -1.46, "Wolbachia per cell robust z, rep 3": -0.0481, "activity call": "inactive"}

Laid out differently: 2 of the entries above.
target gene	dsRNA	Wolbachia per cell robust z, rep 1	Wolbachia per cell robust z, rep 2	Wolbachia per cell robust z, rep 3	activity call
Idh3b	DRSC28483	0.704	-0.0577	-0.0891	inactive
CG9519	DRSC20195	-0.75	0.79	-1.09	inactive

Next reagents follow:
{"target gene": "stv", "dsRNA": "DRSC10111", "Wolbachia per cell robust z, rep 1": -0.969, "Wolbachia per cell robust z, rep 2": 0.838, "Wolbachia per cell robust z, rep 3": -1.68, "activity call": "inactive"}
{"target gene": "stv", "dsRNA": "DRSC24419", "Wolbachia per cell robust z, rep 1": 0.337, "Wolbachia per cell robust z, rep 2": 0.129, "Wolbachia per cell robust z, rep 3": -3, "activity call": "inactive"}
{"target gene": "Shark", "dsRNA": "DRSC07680", "Wolbachia per cell robust z, rep 1": 1.4, "Wolbachia per cell robust z, rep 2": 0.671, "Wolbachia per cell robust z, rep 3": 1.21, "activity call": "inactive"}
{"target gene": "Shark", "dsRNA": "DRSC28527", "Wolbachia per cell robust z, rep 1": 0.646, "Wolbachia per cell robust z, rep 2": 0.966, "Wolbachia per cell robust z, rep 3": 1.66, "activity call": "inactive"}
{"target gene": "CG7707", "dsRNA": "DRSC10903", "Wolbachia per cell robust z, rep 1": 0.941, "Wolbachia per cell robust z, rep 2": 0.59, "Wolbachia per cell robust z, rep 3": -1.73, "activity call": "inactive"}
{"target gene": "CG1724", "dsRNA": "DRSC20548", "Wolbachia per cell robust z, rep 1": -5.35, "Wolbachia per cell robust z, rep 2": -0.426, "Wolbachia per cell robust z, rep 3": -0.326, "activity call": "inactive"}
{"target gene": "CG1724", "dsRNA": "DRSC25668", "Wolbachia per cell robust z, rep 1": 0.344, "Wolbachia per cell robust z, rep 2": 0.0927, "Wolbachia per cell robust z, rep 3": 0.38, "activity call": "inactive"}
{"target gene": "plum", "dsRNA": "DRSC16054", "Wolbachia per cell robust z, rep 1": 0.523, "Wolbachia per cell robust z, rep 2": -1.73, "Wolbachia per cell robust z, rep 3": 0.466, "activity call": "inactive"}
{"target gene": "CG13058", "dsRNA": "DRSC09941", "Wolbachia per cell robust z, rep 1": -0.827, "Wolbachia per cell robust z, rep 2": 0.342, "Wolbachia per cell robust z, rep 3": 0.271, "activity call": "inactive"}
{"target gene": "CG13058", "dsRNA": "DRSC27898", "Wolbachia per cell robust z, rep 1": 2.45, "Wolbachia per cell robust z, rep 2": 0.914, "Wolbachia per cell robust z, rep 3": 1.37, "activity call": "inactive"}
{"target gene": "Lcch3", "dsRNA": "DRSC22175", "Wolbachia per cell robust z, rep 1": -0.55, "Wolbachia per cell robust z, rep 2": 0.207, "Wolbachia per cell robust z, rep 3": -0.443, "activity call": "inactive"}
